Compound potency records, mixed from different reports. Data source: NIAID ChemDB in PubChem.

All rows: tests in culture; species: Candida tropicalis

Conditions beyond the fields shown may differ between rows.

structure	cells	strain	method	read-out	value
CN(C)c1ccc(/C=N/NC(=O)c2ccc(CNc3nc4ccccc4[nH]3)cc2)cc1			broth dilution	MIC	50 µg/mL
CCCC[C@@H](C)/C=C(C)/C=C(\C)C(=O)N/C(=C/[C@@](C)(O)/C=C/C=C/C=C/C(=O)NC1=C(O)CCC1=O)C(=O)[C@@H]1CO1		1	broth dilution	MIC	13 µM
CCC(C)CC(C)CCCCCCCCC(=O)N[C@H]1C[C@@H](O)[C@H](NCCN)NC(=O)[C@@H]2[C@@H](O)CCN2C(=O)[C@H]([C@H](O)CCN)NC(=O)[C@H]([C@H](O)[C@@H](O)c2ccc(O)cc2)NC(=O)[C@@H]2C[C@@H](O)CN2C(=O)[C@H]([C@@H](C)O)NC1=O		20 isolates		Mean MIC	0.54 µg/mL
C[C@H]1[C@H](O)[C@@H](C)/C=C/C=C/C=C/C=C/C=C/C=C/C=C/[C@H](O[C@@H]2O[C@H](C)[C@@H](O)[C@H](N)[C@@H]2O)C[C@@H]2O[C@](O)(C[C@@H](O)C[C@@H](O)CC[C@H](O)[C@@H](O)C[C@@H](O)CC(=O)O[C@H]1C)C[C@H](O)[C@H]2C(=O)O		MTCC 1406	visual reading	MFC	1 µg/mL
Nc1[nH]c(=O)ncc1F		Berkout KCCM 50662		MIC	0.8 µg/mL
O=C(N/N=C/c1ccc(Cl)cc1)c1ccc(CNc2nc3ccccc3[nH]2)cc1			broth dilution	MIC	50 µg/mL
CCC(C)CC(C)CCCCCCCCC(=O)N[C@H]1C[C@@H](O)[C@H](NCCN)NC(=O)[C@@H]2[C@@H](O)CCN2C(=O)[C@H]([C@H](O)CCN)NC(=O)[C@H]([C@H](O)[C@@H](O)c2ccc(O)cc2)NC(=O)[C@@H]2C[C@@H](O)CN2C(=O)[C@H]([C@@H](C)O)NC1=O		MY1163		MIC	0.25 µg/mL
Cc1ccc(-c2c3c(N)c4c(nc3nc3c2c(C)nn3-c2ccccc2)CCCC4)cc1		CCC 131	broth dilution / absorbance	MIC50	15.6 µg/mL
Cc1c(NC(=O)CSC(=S)N2CCCCC2C)c(=O)n(-c2ccccc2)n1C		KUEN 1021		MIC	12.5 µg/mL
N=C(N)c1ccc(OCCCCCCOc2ccc(C(=N)N)cc2)cc1		Ct1	agar diffusion / agar	MIC	22 µg/mL
CCOC(=O)C1C(=O)C=C(c2ccc(C)cc2)CC1c1ccc(C2CC(c3ccc(C)cc3)=CC(=O)C2C(=O)OCC)cc1		Clinical isolate		MIC	25 µg/mL
CCOc1ccc2nc3cc(N=C4NC(=O)/C(=C\c5ccc([N+](=O)[O-])cc5)S4)ccc3c(N)c2c1		ATCC 8302	broth dilution	MIC	500 µg/mL
COc1ccccc1-c1cc2cc(C)cnc2[nH]1		ATCC 201380		MIC100	31.3 µg/mL
CN[C@H]1CC[C@@H](c2ccc(Cl)c(Cl)c2)c2ccccc21		MMRL2017	broth dilution	MFC	32 µg/mL
C[C@@H]1CC(=O)N(c2ccc(F)cc2)C1=O		CCC 131-2000	broth dilution / turbidity	MIC	62.5 µg/mL
C[C@H]1[C@H](O)[C@@H](C)/C=C/C=C/C=C/C=C/C=C/C=C/C=C/[C@H](O[C@@H]2O[C@H](C)[C@@H](O)[C@H](N)[C@@H]2O)C[C@@H]2O[C@](O)(C[C@@H](O)C[C@@H](O)CC[C@H](O)[C@@H](O)C[C@@H](O)CC(=O)O[C@H]1C)C[C@H](O)[C@H]2C(=O)O		750	broth dilution	MIC	0.06 µg/mL
C/C(C=O)=C\c1ccccc1		ATCC 750	agar diffusion	MIC90	300 µM
CCOC(=O)C1C(=O)C=C(c2ccc(Cl)cc2)CC1c1ccc(C2CC(c3ccc(Cl)cc3)=CC(=O)C2C(=O)OCC)cc1		Clinical isolate		MIC	12.5 µg/mL
Cn1cccc1CC(=O)NNC(=O)NCCCCCCNC(=O)NNC(=O)Cc1cccn1C				MIC	7.5 µg/mL
C[C@@H]1CC[C@]2(C(=O)O)CC[C@]3(C)C(=CCC4[C@@]5(C)C[C@@H](O)[C@H](O)[C@@](C)(CO)C5CC[C@]43C)C2[C@H]1C			agar	MIC	256 µg/mL
Cc1ccc(-c2c3c(N)c4c(nc3nc3c2c(C)nn3-c2ccccc2)CCC4)cc1		CCC 131	broth dilution / absorbance	MIC80	125 µg/mL
COc1ccc(N/N=c2/sc3nnc(-c4ccncc4)n3nc2C)cc1		ATCC 66029	broth dilution	MIC	12.5 µg/mL
Clc1ccc(C(Cn2ccnc2)NC/C=C/c2ccccc2)c(Cl)c1		CBS 94 CA 44 CA 35		MIC	50 µg/mL
CCCCC[C@@H]1OCO[C@@]2(C)/C=C(C)/C=C/C(=O)O[C@H]([C@@H](C)[C@@H](O)[C@H](C)[C@@]3(O)C[C@@H](O[C@H]4C[C@@H](O)[C@H](O)[C@@H](C)O4)[C@H](C)[C@@H](C)O3)[C@@H](OC)/C=C/C=C(\C)C[C@H]1[C@@H]2O		F-1		MIC	>100 µg/mL
CN1CCC[C@H]1CCCCCCCCCc1ccccc1		HT4614		MIC	25 µg/mL
CC1C(=O)N(CCCCc2ccccc2)C(=O)C1C		CCC 131-2000	broth dilution / turbidity	MIC	125 µg/mL
OC(Cn1cncn1)(Cn1cncn1)c1ccc(F)cc1F			agar	MIC	≥100 µg/mL
CN(CC(=O)Nc1ccc(C(C)(C)C)cc1)CC(O)(Cn1cncn1)c1ccc(F)cc1F				MIC80	0.0625 µg/mL
Cc1ccccc1N/N=c1/sc2nnc(-c3ccncc3)n2nc1C		ATCC 66029	broth dilution	MIC	>100 µg/mL
CC(C)CC(O)C(=O)O		ATCC 750	broth dilution / visual reading	MFC100	72000 µg/mL
C[C@@H](c1ncncc1F)[C@](O)(Cn1cncn1)c1ccc(F)cc1F		38 isolates		Mean MIC	0.1 µg/mL
O=c1[nH][nH]c2c1C(c1ccc(F)cc1)CC(c1ccc3ccccc3c1)=C2				MIC	12.5 µg/mL
CC1CC(=O)N(c2ccc(F)cc2)C1=O		CCC 131-2000	broth dilution / turbidity	MIC	250 µg/mL
CCOC(=O)C1C(=O)C=C(c2ccc(OC)cc2)CC1c1ccc(C2CC(c3ccc(OC)cc3)=CC(=O)C2C(=O)OCC)cc1		Clinical isolate		MIC	12.5 µg/mL
C[C@H]1[C@H](O)[C@@H](C)/C=C/C=C/C=C/C=C/C=C/C=C/C=C/[C@H](O[C@@H]2O[C@H](C)[C@@H](O)[C@H](N)[C@@H]2O)C[C@@H]2O[C@](O)(C[C@@H](O)C[C@@H](O)CC[C@H](O)[C@@H](O)C[C@@H](O)CC(=O)O[C@H]1C)C[C@H](O)[C@H]2C(=O)O		11 isolates		MIC90	1 µg/mL
CCCCCCCCCCCCCCCCn1cc[n+](C)c1		94P	broth dilution	MIC	0.014 µg/mL
O=C(NCCCCCCNC(=O)NNC(=O)c1ccccc1)NNC(=O)c1ccccc1				MIC	7.5 µg/mL
Clc1ccc(C(Cn2ccnc2)NCc2cccc3ccccc23)c(Cl)c1	VERO	CBS 94 CA 44 CA 14		EC50	25 µg/mL
Cc1ccc(/C=N/Nc2ccnc3cc(Cl)ccc23)cc1				MIC	80 µg/mL
COc1cccc(NC(=O)CN(C)CC(O)(Cn2cncn2)c2ccc(F)cc2F)c1				MIC80	16 µg/mL
Cc1n[nH]c(=O)n1CCCCCCn1c(C)n[nH]c1=O				MIC	3.75 µg/mL
CC1CC2=C(O1)c1ccccc1C(=O)C2=O		Clinical isolate	broth dilution	MIC	40.32 µg/mL
COc1cc(O)c2c(c1)C(=O)c1c(cc3c(c1O)-c1c(cc(C)c(C(=O)NC(CO)C(=O)O)c1O)[C@H](OC1OC(C)C(N(C)C)C(OC4OCC(O)C(O)C4O)C1O)[C@H]3O)C2=O		IFO 10241		MIC	6.3 µg/mL
C=CCc1ccc(OC)c(OC)c1		2863	turbidity	MIC90	345 µg/mL
c1ccc(-c2ccc(CNC(Cn3ccnc3)c3ccccc3)cc2)cc1	VERO	CBS 94 CA 44 CA 14		EC50	12 µg/mL
COc1cc(O)c2c(c1)C(=O)c1c(cc3c(c1O)-c1c(cc(C)c(C(=O)NC(CO)C(=O)O)c1O)[C@H](OC1OC(C)C(O)C(OC4OCC(O)C(O)C4O)C1O)C3O)C2=O		(AMPB-R)		MIC	3.12 µg/mL
Cc1ccc(-c2c3c(N)c4c(nc3nc3c2c(C)nn3-c2ccccc2)CCCCC4)cc1		CCC 131	broth dilution / absorbance	MIC100	125 µg/mL
CCCCCCCCCCCCCCCC(=O)NCCCCN		ATCC 750	broth dilution	MIC	16 µg/mL
C(=C\c1ccccc1)/CNC(Cn1ccnc1)c1ccccc1		CBS 94 CA 44 CA 45		MIC	40 µg/mL
Cc1ccc(N2C(=O)CC(C)C2=O)cc1		CCC 131-2000	broth dilution / turbidity	MIC	250 µg/mL
O=C(Oc1cc2cc(Br)cnc2[nH]1)c1ccccc1		ATCC 201380		MIC100	15.6 µg/mL
CN(CC(=O)Nc1ccccc1[N+](=O)[O-])CC(O)(Cn1cncn1)c1ccc(F)cc1F				MIC80	4 µg/mL
O=C(N/N=C/c1ccccc1)c1ccc(CNc2nc3ccccc3[nH]2)cc1			broth dilution	MIC	25 µg/mL
Cc1ccc(NC(=O)CN(C)CC(O)(Cn2cncn2)c2ccc(F)cc2F)c(C)c1				MIC80	64 µg/mL
C[C@H]1N(C(=O)c2ccc(C(F)(F)F)cc2)C[C@@H](O)O[C@@]1(Cn1cncn1)c1ccc(F)cc1F		Isolate 2		MIC	64 µg/mL
N=c1oc2ccccc2c2csc(N)c12		ATCC 750	broth dilution	MIC	16 µg/mL
CN(CC(=O)Nc1ccc(F)cc1)CC(O)(Cn1cncn1)c1ccc(F)cc1F				MIC80	64 µg/mL
Cc1nn2c(-c3ccncc3)nnc2sc1=NNc1ccc(Br)cc1		ATCC 66029	broth dilution	MIC	25 µg/mL
Clc1cnc2[nH]ccc2c1		ATCC 201380		MIC100	15.6 µg/mL
Cc1cc(C)cc(NC(=O)CN(C)CC(O)(Cn2cncn2)c2ccc(F)cc2F)c1				MIC80	4 µg/mL
O=c1[nH][nH]c2c1C(c1ccccc1)CC(c1ccc3ccccc3c1)=C2				MIC	25 µg/mL

4 of the rows above, restated:

structure	cells	strain	method	read-out	value
CCCC[C@@H](C)/C=C(C)/C=C(\C)C(=O)N/C(=C/[C@@](C)(O)/C=C/C=C/C=C/C(=O)NC1=C(O)CCC1=O)C(=O)[C@@H]1CO1		1	broth dilution	MIC	13 µM
CCCCCCCCCCCCCCCCn1cc[n+](C)c1		94P	broth dilution	MIC	0.014 µg/mL
CCOC(=O)C1C(=O)C=C(c2ccc(OC)cc2)CC1c1ccc(C2CC(c3ccc(OC)cc3)=CC(=O)C2C(=O)OCC)cc1		Clinical isolate		MIC	12.5 µg/mL
Clc1ccc(C(Cn2ccnc2)NC/C=C/c2ccccc2)c(Cl)c1		CBS 94 CA 44 CA 35		MIC	50 µg/mL

An empty or dashed field is not shown. MIC50, MIC90 and the like: level of inhibition, or share of isolates inhibited. ECn is the concentration giving n% inhibition of infection, replication or growth.